According to patent US4683230A, “BMY-28121, a new antitumor antibiotic” (Bristol-Myers Company, priority 1985, dated 1987):

Legend:
anaerobic bacteria = test: In vitro antibacterial activity, anaerobic bacteria (summary); format: cell-based; conditions: gram-positive and negative, incl. clindamycin-resistant C. difficile and clindamycin or ampicillin-resistant B. fragilis
[1] = system: aerobic gram-positive bacteria; test: In vitro antibacterial activity, aerobic gram-positive bacteria (summary); format: cell-based; conditions: all tested, incl. aminoglycoside or penicillin-resistant staphylococci

COc1cccc2c1N[C@H](O)[C@@H]1CC(/C=C/C(=O)N(C)C)=CN1C2=O [BMY-28121A]
inhibition of anaerobic bacteria (anaerobic bacteria): inhibited all
susceptibility of aerobic gram-positive bacteria [1]: moderately susceptible
